Compound potency records, mixed from different reports. Data source: NIAID ChemDB in PubChem.

Common to all: tests in culture; species: Streptococcus pneumoniae; measure: MIC

Neighbouring rows are from separate reports.

SMILES,strain or isolate,result
CC[C@H]1OC(=O)[C@H](C)[C@@H](O[C@H]2C[C@@](C)(OC)[C@@H](O)[C@H](C)O2)[C@H](C)[C@@H](O[C@H]2O[C@@H](C)C[C@@H](N(C)C)[C@@H]2O)[C@](C)(O)C[C@@H](C)C(=O)[C@H](C)[C@@H](O)[C@]1(C)O,49619 (erythromycin A-susceptible),<0.06 µg/mL
NC1CCN(c2c(F)cc3c(=O)c(C(=O)O)cn(C4CC4)c3c2Cl)C1,R6-C11,0.06 µg/mL
CC[C@H]1OC(=O)[C@H](C)C(=O)[C@H](C)[C@@H](O[C@@H]2O[C@H](C)C[C@H](N(C)C)[C@H]2O)[C@@]2(C)C[C@@H](C)C(=NC(C)=O)[C@H](C)[C@@H](OC/C(=N\OCc3ccc(-c4cccc(N)n4)s3)CO2)[C@]1(C)O,7701 (erythromycin A-resistant),0.03 µg/mL
CC[C@H]1OC(=O)[C@H](C)C(=O)[C@H](C)[C@@H](O[C@@H]2O[C@H](C)C[C@H](N(C)C)[C@H]2O)[C@@]2(C)C[C@@H](C)C(=NC(C)=O)[C@H](C)[C@@H](OC/C(=N\OCc3cccc(N)n3)CO2)[C@]1(C)O,700906 (erythromycin-resistant-ERM),0.13 µg/mL
CN1CCN(c2cc3c(cc2F)c(=O)c(C(=O)O)cn3C2CC2)CC1,R6-C11,2 µg/mL
CC[C@H]1OC(=O)[C@H](C)C(=O)[C@H](C)[C@@H](O[C@@H]2O[C@H](C)C[C@H](N(C)C)[C@H]2O)[C@@]2(C)C[C@@H](C)C(=NC(C)=O)[C@H](C)C(OC/C(=N\OCc3ccccc3)CO2)[C@]1(C)O,700906 (erythromycin-resistant-ERM),0.13 µg/mL
COc1c(N2CCNC(C)C2)c(F)cc2c(=O)c(C(=O)O)cn(C3CC3)c12,R6-G8,0.5 µg/mL
CC[C@H]1OC(=O)[C@H](C)C(=O)[C@H](C)[C@@H](O[C@@H]2O[C@H](C)C[C@H](N(C)C)[C@H]2O)[C@@]2(C)C[C@@H](C)C(=NC(C)=O)[C@H](C)C(OC/C(=C\C=C\c3ccc([N+](=O)[O-])cc3)CO2)[C@]1(C)O,700906 (erythromycin-resistant-ERM),1 µg/mL
CC[C@H]1OC(=O)[C@H](C)C(=O)[C@H](C)[C@@H](O[C@@H]2O[C@H](C)C[C@H](N(C)C)[C@H]2O)[C@](C)(OC)C[C@@H](C)C(=O)[C@H](C)[C@H]2N(CCCCn3cnc(-c4cccnc4)c3)C(=O)O[C@]12C,700906 (erythromycin-resistant-ERM),0.25 µg/mL
NC1CCN(c2ccc3c(=O)c(C(=O)O)cn(C4CC4)c3c2Cl)C1,R6-G8,0.25 µg/mL
CC[C@H]1OC(=O)[C@H](C)C(=O)[C@H](C)[C@@H](O[C@@H]2O[C@H](C)C[C@H](N(C)C)[C@H]2O)[C@@]2(C)C[C@@H](C)C(=NC(C)=O)[C@H](C)C(OC/C(=C\C#Cc3ccc(N)cc3)CO2)[C@]1(C)O,49619 (erythromycin-susceptible),<0.06 µg/mL
CC[C@H]1OC(=O)[C@@](C)(F)C(=O)[C@H](C)[C@@H](O[C@@H]2O[C@H](C)C[C@H](N(C)C)[C@H]2O)[C@@]2(C)C[C@@H](C)C(=O)[C@H](C)[C@@H](OC/C(=N\OCc3ccc(-n4cccn4)nc3)CO2)[C@]1(C)O,49619 (erythromycin A-susceptible),<0.06 µg/mL
CC[C@H]1OC(=O)[C@H](C)C(=O)[C@H](C)[C@@H](O[C@@H]2O[C@H](C)C[C@H](N(C)C)[C@H]2O)[C@@]2(C)C[C@@H](C)C(=NC(C)=O)[C@H](C)C(OC/C(=C\C#Cc3cccnc3)CO2)[C@]1(C)O,49619 (erythromycin-susceptible),<0.06 µg/mL
CC[C@H]1OC(=O)[C@H](C)C(=O)[C@H](C)[C@@H](O[C@@H]2O[C@H](C)C[C@H](N(C)C)[C@H]2O)[C@@]2(C)C[C@@H](C)C(=NC(C)=O)[C@H](C)[C@@H](OC/C(=N\OCC#Cc3ncccn3)CO2)[C@]1(C)O,49619 (erythromycin-susceptible),<0.06 µg/mL
CC[C@H]1OC(=O)[C@H](C)C(=O)[C@H](C)[C@@H](O[C@@H]2O[C@H](C)C[C@H](N(C)C)[C@H]2O)[C@@]2(C)C[C@@H](C)C(=NC(C)=O)[C@H](C)C(OC/C(=C\C=C\c3ccccc3)CO2)[C@]1(C)O,49619 (erythromycin-susceptible),<0.06 µg/mL
CC[C@H]1OC(=O)[C@@](C)(F)C(=O)[C@H](C)[C@@H](O[C@@H]2O[C@H](C)C[C@H](N(C)C)[C@H]2O)[C@@]2(C)C[C@@H](C)C(=N)[C@H](C)[C@@H](OC/C(=N\OCc3ccc(-c4nccs4)nc3)CO2)[C@]1(C)O,700906 (erythromycin A-resistant),<0.06 µg/mL
CC[C@H]1OC(=O)[C@H](C)C(=O)[C@H](C)[C@@H](O[C@@H]2O[C@H](C)C[C@H](N(C)C)[C@H]2O)[C@@]2(C)C[C@@H](C)C(=NC(=O)CN)[C@H](C)C(OC/C(=C\C=C\c3ccccc3)CO2)[C@]1(C)O,7701 (erythromycin-resistant-MEF),0.5 µg/mL
CC[C@H]1OC(=O)[C@H](C)C(=O)[C@H](C)[C@@H](O[C@@H]2O[C@H](C)C[C@H](N(C)C)[C@H]2O)[C@@]2(C)C[C@@H](C)C(=NC(C)=O)[C@H](C)[C@@H](OC/C(=N\OCC#Cc3cncnc3)CO2)[C@]1(C)O,7701 (erythromycin-resistant-MEF),1 µg/mL

For reference, 2 entries again:

SMILES | strain or isolate | result
CC[C@H]1OC(=O)[C@@](C)(F)C(=O)[C@H](C)[C@@H](O[C@@H]2O[C@H](C)C[C@H](N(C)C)[C@H]2O)[C@@]2(C)C[C@@H](C)C(=N)[C@H](C)[C@@H](OC/C(=N\OCc3ccc(-c4nccs4)nc3)CO2)[C@]1(C)O | 700906 (erythromycin A-resistant) | <0.06 µg/mL
CC[C@H]1OC(=O)[C@H](C)C(=O)[C@H](C)[C@@H](O[C@@H]2O[C@H](C)C[C@H](N(C)C)[C@H]2O)[C@@]2(C)C[C@@H](C)C(=NC(C)=O)[C@H](C)[C@@H](OC/C(=N\OCc3ccc(-c4cccc(N)n4)s3)CO2)[C@]1(C)O | 7701 (erythromycin A-resistant) | 0.03 µg/mL